# Experimental data reported in ChEMBL document CHEMBL4392846, “Identification and design of novel small molecule inhibitors against MERS-CoV papain-like protease via high-throughput screening and molecular modeling” (Bioorg Med Chem, 2019).
# Tests used:
# [1] = molecular target: Replicase polyprotein 1ab (Middle East respiratory syndrome-related coronavirus (isolate UnitedKingdom/H123990006/2012) (Betacoronavirus England 1) (Humancoronavirus EMC)) (UniProt K9N7C7); assay: Binding affinity to MERS-CoV papain-like protease assessed as association rate constant by SPR analysis
# [2] = molecular target: Replicase polyprotein 1ab (Middle East respiratory syndrome-related coronavirus (isolate UnitedKingdom/H123990006/2012) (Betacoronavirus England 1) (Humancoronavirus EMC)) (UniProt K9N7C7); assay: Binding affinity to MERS-CoV papain-like protease assessed as dissociation rate constant by SPR analysis
smiles,measurement,setting,value
Cc1cc(C)n(S(=O)(=O)c2ccc(N)cc2)c(=O)n1,Ka,[1],3.2 ×10³ /M/s
same,Kdiss,[2],3 ×10⁻² /s
O=Cc1ccc(O)c(O)c1 [PROTOCATECHUALDEHYDE],Ka,[1],1.88 ×10² /M/s
same,Kdiss,[2],4.18 ×10⁻² /s
